Reference: PMC6537213, “Ellagic acid microspheres restrict the growth of Babesia and Theileria in vitro and Babesia microti in vivo” (Parasites & Vectors, 2019)

What was measured:
Test in all cases: cytotoxicity assay (CCK-8)
Format in all cases: cell-based
[1] = test system: Madin-Darby bovine kidney (MDBK) cell line
Experimental: (§1) The MDBK cell line was maintained in 75 cm^2 culture flasks with Minimum Essential Medium Eagle (MEM; Gibco, Grand Island, NY, USA), while Dulbecco’s Modified Eagle’s Medium (DMEM; […] Each medium was supplemented with 10% fetal bovine serum, 0.5% penicillin/streptomycin (Gibco), and an additional 1% glutamine. Every 3 to 4 days, the medium was changed, and the cells were incubated until approximately 80% confluent. The cells were free from mycoplasma contamination after being checked by staining with 4,6-diamidino-2-phenylindole dihydrochloride (DAPI; Sigma-Aldrich, St. Louis). The cell detachment from the culture flask was done using TrypLE^TM Express (Gibco) after washing two times with Dulbecco’s phosphate-buffered saline (DPBS). Subsequently, viable cells were counted using a Neubauer Improved C-Chip (NanoEnTek Inc., Seoul, Korea) after staining with 0.4% trypan blue solution. The drug-exposure viability assay was performed in accordance with the recommendation for the Cell Counting Kit-8 (CCK-8; Dojindo, Kumamoto, Japan). Briefly, in a 96-well plate, 100 µl of cells at a density of 5 × 10^4 cells/ml were seeded per well and allowed to attach to the plate for 24 h at 37 °C in a humidified incubator with 5% CO2. Ten microliters of drug diluted two-fold were added to each well to a final concentration of 0.781 to 800 µM in triplicate. Wells with only a culture medium were used as blanks, while wells containing cells and a medium with 0.5% DMSO were used as positive controls. Drug exposure lasted for 24 h. After 24 h, 10 µl of CCK-8 was added, and the plate was further incubated for 3 h. Absorbance was measured at 450 nm using a microplate reader.

[2] = test system: human foreskin fibroblast (HFF) cell line
Experimental: as §1

[3] = test system: mouse embryonic fibroblast (NIH/3T3) cell line
Experimental: as §1

With `CC(=O)NCC(=O)O.CC(=O)NCC(=O)O.N=C(N)c1ccc(N=NNc2ccc(C(=N)N)cc2)cc1` [DA, diminazene aceturate] the “Selective indices MDBK” value ([1]; EC50 MDBK / IC50 B. bovis) was “˃ 285.7”, the “Selective indices MDBK” value ([1]; EC50 MDBK / IC50 B. caballi) was “˃ 4545” and the “Selective indices MDBK” value ([1]; EC50 MDBK / IC50 B. divergens) was “˃ 232.5”. For the same compound, the “Selective indices MDBK” value ([1]; EC50 MDBK / IC50 T. equi) was “˃ 476.2”, the “Selective indices HFF” value ([2]; EC50 HFF / IC50 B. bovis) was “˃ 285.7” and the “Selective indices HFF” value ([2]; EC50 HFF / IC50 B. caballi) was “˃ 4545”. For the same compound, the “Selective indices HFF” value ([2]; EC50 HFF / IC50 B. divergens) was “˃ 232.5”, the “Selective indices HFF” value ([2]; EC50 HFF / IC50 T. equi) was “˃ 476.2” and the “Selective indices NIH/3T3” value ([3]; EC50 NIH/3T3 / IC50 B. bovis) was “˃ 285.7”. For the same compound, the “Selective indices NIH/3T3” value ([3]; EC50 NIH/3T3 / IC50 B. caballi) was “˃ 4545”, the “Selective indices NIH/3T3” value ([3]; EC50 NIH/3T3 / IC50 B. divergens) was “˃ 232.5” and the “Selective indices NIH/3T3” value ([3]; EC50 NIH/3T3 / IC50 T. equi) was “˃ 476.2”.
